The values that follow come from article PMC10857709, “Autophagy and cell wall integrity pathways coordinately regulate the development and pathogenicity through MoAtg4 phosphorylation in Magnaporthe oryzae” (2024).

pKd: −log10 of the molar value.

This experiment has as its target GST-MoAtg8 (Magnaporthe oryzae). The experiment in a line: MST.

A word on the pKd: it is the Kd on a negative log10 scale, so that one unit is a factor of ten. On to His-MoAtg4 (enzyme), for which the pKd was 6.82.

For the substance His-MoAtg4^C206S (enzyme), the pKd was 6.72.
